According to paper PMC5662717 (Scientific Reports, 2017):

Assay: general procedure: Fmoc solid-phase peptide synthesis; Wang resin (aapptech), ~0.5 mmol/g; DIC/HOBt
Details: whole synthesis, 220 nm

In order of falling “final HPLC purity” value:
1. PEPTIDE1{C.R.Y.P.F.C}$PEPTIDE1,PEPTIDE1,1:R3-6:R3$$$V2.0  99%
2. PEPTIDE1{C.D.R.V.C.Y.H.I.P.F}$PEPTIDE1,PEPTIDE1,1:R3-5:R3$$$V2.0  98%
3. PEPTIDE1{C.D.R.V.Y.H.I.P.F.C}$PEPTIDE1,PEPTIDE1,1:R3-10:R3$$$V2.0  98%
4. PEPTIDE1{C.R.Y.H.I.P.F.C}$PEPTIDE1,PEPTIDE1,1:R3-8:R3$$$V2.0  98%
5. PEPTIDE1{C.D.R.V.Y.I.H.P.F.C}$PEPTIDE1,PEPTIDE1,1:R3-10:R3$$$V2.0  98%
6. PEPTIDE1{C.D.R.V.Y.P.F.C}$PEPTIDE1,PEPTIDE1,1:R3-8:R3$$$V2.0  97%
7. PEPTIDE1{C.Y.H.P.F.C}$PEPTIDE1,PEPTIDE1,1:R3-6:R3$$$V2.0  97%

Strings that start with PEPTIDE1 are HELM notation: dots part the residues, brackets hold end groups and non-standard residues.
